# Assay results taken from paper PMC2902600.
# Biological target: HIV-1 MA protein (HIV-1)
# Experiment: SAXS
substance,measurement,value
Xenopus laevis calmodulin (from UniProt P0DP33 2-149) (natural protein),stoichiometry N,1
